Results of unrelated studies side by side (data: NIAID ChemDB).

Common to all: tests in culture; species: Influenza A virus

Lines come from different laboratories, so protocols vary. Percent inhibition refers to the dose given; in toxicity tests it is the harm to the cells. Blank or dashed fields: not listed here. a–b is a range or a potency band. ECn is the concentration giving n% inhibition of infection, replication or growth.

SMILES	strain or isolate	cells	tested at	read by	read-out	result
CC(N)C12CC3CC(CC(C3)C1)C2	Influenza A/Guizhou/54/89 (H3N2)	VERO		ELISA	EC50	0.012 µg/mL
C/C=C\[C@@H]1C[C@H](C(=O)O)N[C@H]1[C@@H](NC(C)=O)[C@](C)(CCC)OC	H1N1 isolate C31D	MDCK		plaque count	EC50	≤0.02 µg/mL
Nc1nccc(NCC2(CO)CC(CCc3ccccc3)C2)n1	H1N1 A/PR/8/34	MDCK		plaque count	EC50	4.5–16 µM
CCCC(CCC)C(NC(C)=O)C1CC(C(=O)O)CC1N=C(N)N	Influenza A/Johannesburg/33/94 (H3N2)	MDCK			EC50	0.05 µM
[N-]=C=Nc1nncs1	Influenza A/Virginia/88 (H3N2)	MDCK	1 µg/mL	virus yield	inhibition	90%
CCC(CC)[C@H](NC(C)=O)[C@@H]1C[C@@H](C(=O)O)C[C@H]1N=C(N)N	Influenza A/Victoria/3/75 (H3N2)	MDCK			EC50	0.06 µM
Nc1nc2c(ccn2[C@@H]2C[C@H](CO)[C@@H](O)[C@H]2O)c(=O)[nH]1	Influenza A/Victoria/3/75 (H3N2)				MIC	>100 µg/mL
CC(O)C1(CNc2cc(Cl)nc(N)n2)CCC1	H1N1 A/PR/8/34	MDCK		plaque count	EC50	180 µM
CCC(CC)O[C@@H]1C=C(C(=O)O)C[C@H](N)[C@H]1NC(C)=O	Influenza A/Washington/897/80 (H3N2)	MDCK		visual reading	EC50	<0.01 µM
N#Cc1cnc(N)nc1NCC1(CO)CC(CCc2ccccc2)C1	H1N1 A/PR/8/34	MDCK		plaque count	EC50	1.7–2.4 µM
CC(=O)N[C@H]1[C@H]([C@H](O)[C@H](O)CO)OC(C(=O)O)=C[C@@H]1N=C(N)N	H3N2 A/AICHI/1168	MDCK	0.6 µM	virus yield	inhibition	90%
Nc1nc(NCC2(CO)CCC2)cc(=O)[nH]1	H1N1 A/PR/8/34	MDCK		plaque count	EC50	>130 µM
CCC	USSR/2/85 (H3)	MDCK			EC50	>50 µM
CC(C)(CO)CNc1cc(Cl)nc(N)n1	H1N1 A/PR/8/34	MDCK		plaque count	EC50	250 µM
CCCC(CCC)C(NC(C)=O)C1C(N=C(N)N)CC(C(=O)O)C1O	H1N1 A/TEXAS/36/91	MDCK			EC50	0.06 µM

For reference, 2 entries again:

SMILES,strain or isolate,cells,tested at,read by,read-out,result
CCC,USSR/2/85 (H3),MDCK,,,EC50,>50 µM
Nc1nc2c(ccn2[C@@H]2C[C@H](CO)[C@@H](O)[C@H]2O)c(=O)[nH]1,Influenza A/Victoria/3/75 (H3N2),,,,MIC,>100 µg/mL